{
  "source": "paper PMC9115767",
  "about": "(European journal of medicinal chemistry, 2021)",
  "target": "HIV-1 NL4-3 CA hexamer (Human immunodeficiency virus type 1 group M subtype B, UniProt P12493, A146C/E177C/M317A/W316A)",
  "experiment": "biochemical",
  "format": "binding",
  "data": [
    {"compound": "COc1ccc(N(C)C(=O)[C@H](Cc2cc(F)cc(F)c2)NC(=O)CN2CCN(CC(=O)N[C@@H](Cc3cc(F)cc(F)c3)C(=O)N(C)c3ccc(OC)cc3)C(=O)C2)cc1", "note": "[Q-c4, (2S,2′S)-2,2'-((2,2'-(2-oxopiperazine-1,4-diyl)bis(acetyl))bis(azanediyl)) bis(3-(3,5-difluorophenyl)-N-(4-methoxyphenyl)-N-methylpropanamide)]", "values": [
      {"measurement": "Kd", "value": "~8", "unit": "µM"}
    ]}
  ]
}
